# Test system: C57BL/6 mice
# Assay: In vivo dose range toxicity study
# Conditions: up to 50 mg/kg, repeat dose tail vein injection
compound,measurement,value
CCCCNC(=O)Oc1ccc2cc1Oc1ccc(cc1)CC1c3cc(c(OC)cc3CCN1C)Oc1c(OC)c(OC)cc3c1C(C2)N(C)CC3 (stereo not shown),body weight compared with the control group,"No significant changes in body weight were observed with up to 50 mg/kg of BE-33 compared with the control group, however, in the 50 mg/kg administration group, a pronounced decrease in locomotor activity was observed."

# Source: paper PMC8190750 (Cell Research, 2021)
